Assay results taken from patent US20040191887A1 (WISCONSIN ALUMNI RESEARCH FOUNDATION, published 2004).
Where two headings read alike, the source gives them in different places.

How the values were obtained:
botulinum neurotoxin B [1] = biological target: T1, botulinum neurotoxin B (Clostridium botulinum, UniProt P10844 2-441; P10844 442-1291); assay: cell-based or functional assay
botulinum neurotoxin B [2] = biological target: T1, botulinum neurotoxin B
botulinum neurotoxin B [3] = biological target: T1, botulinum neurotoxin B; assay: immunofluorescence of fragment aggregates on syt II+ PC12 cells (FIG. 5A)
botulinum neurotoxin B [4] = biological target: T1, botulinum neurotoxin B; assay: GST pull-down, immunoblot (FIG. 8)

B1: His6-syt II 1-267 (receptor)
chain: MRNIFKRNQEPNVAPATTTATMPLAPVAPADNSTESTGPGESQEDMFAKLKEKFFNEINKIPLPPWALIAMAVVAGLLLLTCCFCICKKCCCKKKKNKKEKGKGMKNAMNMKDMKGGQDDDDAETGLTEGEGEGEEEKEPENLGKLQFSLDYDFQANQLTVGVLQAAELPALDMGGTSDPYVKVFLLPDKKKKYETKVHRKTLNPAFNETFTFKVPYQELAGKTLVMAIYDFDRFSKHDIIGEVKVPMNTVDLGQPIEEWRDLQGGE
efficacy of protection of syb II from cleavage, with versus without gangliosides (botulinum neurotoxin B [1]): ~3 fold

B2: GST fusion of rat synaptotagmin IV lacking the C2B domain (receptor)
chain: MAPITTSRVEFDEIPTVVGIFSAFGLVFTVSLFAWICCQRRSAKSNKTPPYKFVHVLKGVDIYPENLSSKKKFGGDDKSEAKRKAALPNLSLHLDLEKRDLNGNFPKTNPKAGSSSDLENVTPKLFPETEKEAVSPESLKSSTSLTSEEKQEKLGTLFLSLEYNFEKKAFVVNIKEAQGLPAMDEQSMTSDPYIKMTILPEKKHKVKTRVLRKTLDPVFDETFTFYGVPYPHIQELSLHFTVLSFDRFSRDDVIGEVLVPLSGIELSDGKMLMTREIIKR
binding result (botulinum neurotoxin B [2]): no binding (tested: 30 nM)

B3: His6-syt II 61-267 (receptor)
chain: IPLPPWALIAMAVVAGLLLLTCCFCICKKCCCKKKKNKKEKGKGMKNAMNMKDMKGGQDDDDAETGLTEGEGEGEEEKEPENLGKLQFSLDYDFQANQLTVGVLQAAELPALDMGGTSDPYVKVFLLPDKKKKYETKVHRKTLNPAFNETFTFKVPYQELAGKTLVMAIYDFDRFSKHDIIGEVKVPMNTVDLGQPIEEWRDLQGGE
binding result (botulinum neurotoxin B [3]): no binding (tested: 30 nM BoNT/B, 960 nM fragment)

B4: GST-syt I 1-53 (isolated luminal domain of syt I) (receptor)
chain: MVSASHPEALAAPVTTVATLVPHNATEPASPGEGKEDAFSKLKQKFMNELHKI
binding result (botulinum neurotoxin B [4]): no binding
